PubChem BioAssay AID504761 | Drosophila RNAi Screening Center | 2011
The deposit covers about 22,000 reagents; below is a random part of those that have a named target and a result. Of all reagents, 116 (0.52%) got an active call. 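Calls depend on retest data that are not deposited; infection was ranked per plate without normalising between plates; the unit of the infection score is not given.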 Raw values are not corrected between plates. A plus sign joins genes that one reagent is predicted to hit. Not stated in the record: the amount of reagent, the time to read-out.

- Test: 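Genome-wide fly cell screen for genes dengue virus requires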 (primary screen)
- Cells: D.Mel-2 cells from Drosophila
- Reagents: long dsRNA against Drosophila genes
- Conditions: infection with dengue virus type 2; dose and infection time not stated
- Measurement: 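Cells stained for dengue envelope protein and imaged; percent of infected cells per well on duplicate plates, ranked by infection, with stained nuclei counted for cell number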
- Reading the numbers: infection score: higher = more virus-infected cells; cell count: higher = more cells in the well
- Active means: 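Low infection ranks in the two replicates (chance level up to 0.065) followed by a retest with a 1.5-fold or larger significant decrease, p below 0.05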
- Meaning of the calls: active = confirmed: knock-down lowers infection; inactive = not picked or not confirmed

| predicted target | DRSC id | infection score, replicate 1 | infection score, replicate 2 | cell count, replicate 1 | cell count, replicate 2 | call |
| --- | --- | --- | --- | --- | --- | --- |
| Or33c (Odorant receptor 33c) | DRSC03388 | 17.2 | 12.3 | 5814 | 1947 | inactive |
| CG15628 | DRSC00256 | 3.65 | 3.34 | 4632 | 4697 | inactive |
| CG15628 | DRSC00463 | 30.4 | 20 | 6651 | 6844 | inactive |
| SelG (Selenoprotein G) | DRSC19808 | 3.51 | 6.74 | 6554 | 6617 | inactive |
| SelG (Selenoprotein G) | DRSC25206 | 1.53 | 5.13 | 6398 | 6065 | inactive |
| eIF4E3 (eukaryotic translation initiation factor 4E3) | DRSC10952 | 7.35 | 11.4 | 6367 | 6445 | inactive |
| Pgant8 (Polypeptide N-Acetylgalactosaminyltransferase 8) | DRSC10801 | 0.62 | 0.88 | 6005 | 6254 | inactive |
| Pgant8 (Polypeptide N-Acetylgalactosaminyltransferase 8) | DRSC26909 | 1.3 | 3.23 | 6396 | 6505 | inactive |
| tud (tudor) | DRSC04719 | 14.5 | 20.3 | 4545 | 5756 | inactive |
| sty (sprouty) | DRSC22994 | 2.33 | 8.82 | 5021 | 5453 | inactive |
| sty (sprouty) | DRSC25779 | 4.73 | 3.08 | 6105 | 6107 | inactive |
| CG15553 | DRSC15091 | 1.88 | 4.08 | 6761 | 759 | inactive |
| Srx (Sulfiredoxin) | DRSC20005 | 8.27 | 2.38 | 5914 | 7064 | inactive |
| Pi3K92E (Phosphatidylinositol 3-kinase 92E) | DRSC16788 | 2.7 | 0.89 | 6525 | 112 | inactive |
| ro (rough) | DRSC17046 | 2.75 | 2.35 | 6249 | 6677 | inactive |
| ro (rough) | DRSC23565 | 1.09 | 3.62 | 5947 | 6188 | inactive |
| dac (dachshund) | DRSC03518 | 4.41 | 9.4 | 6168 | 5329 | inactive |
| CG11200 | DRSC06060 | 11.9 | 17.2 | 6171 | 3735 | inactive |
| CG11200 | DRSC27196 | 17.1 | 23.3 | 6359 | 6235 | inactive |
| rgn (regeneration) | DRSC11609 | 9.88 | 7.77 | 5465 | 6941 | inactive |
| ninaA (neither inactivation nor afterpotential A) | DRSC00830 | 5.72 | 3.48 | 6256 | 6902 | inactive |
| CG6638 | DRSC10680 | 1.62 | 4.21 | 6243 | 6581 | inactive |
| CG6638 | DRSC24246 | 10.1 | 9.39 | 5972 | 5603 | inactive |
| MetRS-m (Methionyl-tRNA synthetase, mitochondrial) | DRSC16443 | 15.1 | 9.03 | 6526 | 6679 | inactive |
| MetRS-m (Methionyl-tRNA synthetase, mitochondrial) | DRSC16515 | 5.36 | 2.93 | 6434 | 6926 | inactive |
| eIF3j (eukaryotic translation initiation factor 3 subunit j) | DRSC06107 | 10.1 | 6.31 | 5334 | 5988 | inactive |
| PolrMT (RNA polymerase mitochondrial) | DRSC00660 | 7.92 | 14.8 | 4341 | 4621 | inactive |
| ova (ovaries absent) | DRSC02879 | 6.66 | 3.58 | 7038 | 6673 | inactive |
| Cht5 (Chitinase 5) | DRSC16470 | 5.86 | 5.78 | 6516 | 7261 | inactive |
| Cht5 (Chitinase 5) | DRSC26080 | 9.9 | 1.8 | 6123 | 6175 | inactive |
| Fatp2 (Fatty acid transport protein 2) | DRSC03971 | 2.82 | 2.66 | 5811 | 6605 | inactive |
| Fatp2 (Fatty acid transport protein 2) | DRSC04178 | 5.05 | 7.73 | 6438 | 6338 | inactive |
| Fatp2 (Fatty acid transport protein 2) | DRSC04330 | 9.45 | 13.8 | 5617 | 5548 | inactive |
| CG1371 | DRSC06409 | 5.51 | 3.27 | 5967 | 6357 | inactive |
| Pgcl (Pepsinogen C-like) | DRSC18815 | 0.79 | 10.4 | 6581 | 6267 | inactive |
| pyr (pyramus) | DRSC24993 | 7.37 | 1.82 | 5831 | 6279 | inactive |
| CG14247 | DRSC14742 | – | – | 362 | 343 | inactive |
| CG14247 | DRSC24048 | 3.4 | 3.47 | 6146 | 6057 | inactive |
| CG30100 + CG42372 | DRSC30025 | 9.71 | 7.04 | 5255 | 6672 | inactive |

Reformatted: 3 of the entries above
{"predicted target": "Or33c (Odorant receptor 33c)", "DRSC id": "DRSC03388", "infection score, replicate 1": 17.2, "infection score, replicate 2": 12.3, "cell count, replicate 1": 5814, "cell count, replicate 2": 1947, "call": "inactive"}
{"predicted target": "CG15628", "DRSC id": "DRSC00256", "infection score, replicate 1": 3.65, "infection score, replicate 2": 3.34, "cell count, replicate 1": 4632, "cell count, replicate 2": 4697, "call": "inactive"}
{"predicted target": "CG15628", "DRSC id": "DRSC00463", "infection score, replicate 1": 30.4, "infection score, replicate 2": 20, "cell count, replicate 1": 6651, "cell count, replicate 2": 6844, "call": "inactive"}
